Pooled drug test results. Numbers come from NIAID ChemDB, via PubChem.

Shared fields: cytotoxicity tests; cells: MT-4; endpoint: CC50

Blank or dashed fields: not listed here.

structure,read by,value
O=c1cc(Cc2ccccc2)nc(OC2CCCCC2)[nH]1,-,157 µM
C[C@H](NP(=O)(OC[C@@H]1C=C[C@H](n2ccc3c(N)ncnc32)C1)Oc1ccccc1)C(=O)OCc1ccccc1,trypan blue,78 µM
Cc1nnc(C(=O)N(C)C2CN(C)CCn3c2nc(C(=O)NCc2ccc(F)cc2)c(O)c3=O)o1,microscopy,>1 µM
O=C1/C(=N\n2c(-c3ccncc3)n[nH]c2=S)c2cc(Cl)ccc2N1CN1CCOCC1,-,13.6 µM
CCO/C(CC(=O)NCc1ccc(Br)cc1)=N\Nc1ccccc1[N+](=O)[O-],MTT,53.28 µM
Cc1cn([C@H]2C[C@H](N=[N+]=[N-])[C@@H](COP(=O)(Nc3cc(C(=O)Nc4cc(C(=O)NCCC(=N)N)n(C)c4)n(C)c3)OC3CCCCC3)O2)c(=O)[nH]c1=O,MTT,166 µM
CC1c2nc(C(=O)NCc3ccc(F)cc3)c(O)c(=O)n2CCN1C,microscopy,>1 µM
O=c1cc(Cc2ccccc2)[nH]c(=O)[nH]1,-,>1000 µM
c1ccc(CCNCc2ccc(CN3CCCNCCNCCCNCC3)cc2)nc1,MTT,>250 µg/mL
COc1ccc(N(C)C(=O)[C@H](Cc2cc(F)cc(F)c2)NC(=O)CN2CCN(S(=O)(=O)c3ccccc3[N+](=O)[O-])CC2=O)cc1,MTT,94.87 µM
CCCCOc1nc(Cc2ccccc2)c(C)c(=O)[nH]1,-,146 µM
CC(=O)N(C)C1CN(C)CCn2c1nc(C(=O)NCc1ccc(F)cc1)c(O)c2=O,microscopy,>1 µM
Cc1cn([C@H]2C=C[C@@H](COP(=O)(Nc3cc(C(=O)Nc4cc(C(=O)Nc5cc(C(=O)NCCC#N)n(C)c5)n(C)c4)n(C)c3)OC3CCCCC3)O2)c(=O)[nH]c1=O,MTT,113 µM
O=C1/C(=N\n2c(-c3ccncc3)n[nH]c2=S)c2ccccc2N1CN1CCOCC1,-,13.8 µM
Cc1cn([C@H]2C=C[C@@H](COP(=O)(Nc3cc(C(=O)Nc4cc(C(=O)Nc5cc(C(=O)Nc6cc(C(=O)NCCC(=N)N)n(C)c6)n(C)c5)n(C)c4)n(C)c3)OC(C)C)O2)c(=O)[nH]c1=O,MTT,182 µM
CCO/C(CC(=O)NCc1ccc(C)cc1)=N\Nc1ccccc1[N+](=O)[O-],MTT,18.16 µM
Nc1ncnc2c1ccn2[C@@H]1C=C[C@H](CO)C1,trypan blue,>500 µM
O=C1Nc2ccccc2/C1=N/n1c(-c2ccncc2)n[nH]c1=S,-,11.3 µM
O=c1cc(Cc2ccccc2)nc(OC2CCCC2)[nH]1,-,466 µM
COC(=O)[C@H](C)NP(=O)(OC[C@@H]1C=C[C@H](n2ccc3c(N)ncnc32)C1)Oc1ccccc1,trypan blue,>25 µM
CO[C@@H]1[C@H](N(C)C(=O)c2ccccc2)C[C@@]2(C)O[C@]1(C)n1c3ccccc3c3c4c(c5c6ccccc6n2c5c31)C(=O)NC4,fluorescence,>5 µM
CCC(C)Oc1nc(Cc2ccccc2)cc(=O)[nH]1,-,344 µM
Cc1cn([C@H]2C[C@H](N=[N+]=[N-])[C@@H](COP(=O)(Nc3cc(C(=O)Nc4cc(C(=O)Nc5cc(C(=O)NCCC(=N)N)n(C)c5)n(C)c4)n(C)c3)OC(C)C)O2)c(=O)[nH]c1=O,MTT,53 µM
CN1CCn2c(nc(C(=O)NCc3ccc(F)c(Cl)c3)c(O)c2=O)C1(C)C,microscopy,>1 µM
COc1ccc(N(C)C(=O)[C@H](Cc2cc(F)cc(F)c2)NC(=O)CN2CCN(S(=O)(=O)c3cccc(NC(C)=O)c3)CC2=O)cc1,MTT,91.58 µM
CC(C)Oc1nc(Cc2ccccc2)cc(=O)[nH]1,-,646 µM
Cc1cn([C@H]2C[C@H](N=[N+]=[N-])[C@@H](COP(=O)(Nc3cc(C(=O)Nc4cc(C(=O)Nc5cc(C(=O)Nc6cc(C(=O)NCCC(=N)N)n(C)c6)n(C)c5)n(C)c4)n(C)c3)OC3CCCCC3)O2)c(=O)[nH]c1=O,MTT,221 µM
Nc1ncnc2c1ccn2[C@H]1C=C[C@@H](CO)C1,trypan blue,>200 µM
Nc1nc2c(ncn2[C@@H]2C[C@H](O)[C@H](CO)O2)c(=O)[nH]1,-,>100 µM
COC(=O)C(C)(C)NP(=O)(OC[C@@H]1C=C[C@H](n2ccc3c(N)ncnc32)C1)Oc1ccccc1,trypan blue,490 µM
Cc1cnc(CNCc2ccc(CN3CCCNCCNCCCNCC3)cc2)cn1,MTT,>250 µg/mL
CNC(=O)c1cc(F)ccc1CNC(=O)c1nc2n(c(=O)c1O)CCN(C)C2(C)C,microscopy,>1 µM
CCO/C(CC(=O)NCc1ccc(Cl)cc1)=N\Nc1ccccc1[N+](=O)[O-],MTT,15.91 µM
O=c1cc(Cc2ccccc2)nc(OCC2CCCO2)[nH]1,-,>1000 µM
COc1ccc(N(C)C(=O)[C@H](Cc2cc(F)cc(F)c2)NC(=O)CN2CCN(S(=O)(=O)c3cccc([N+](=O)[O-])c3)CC2=O)cc1,MTT,83.87 µM
COC(=O)c1ccc(Nc2ccc(OC)c3ccccc23)cc1,MTT,1.07 µM
COc1ccc(N(C)C(=O)[C@H](Cc2cc(F)cc(F)c2)NC(=O)CN2CCN(S(=O)(=O)c3ccccc3N)CC2=O)cc1,MTT,63.62 µM
Cc1c(Cc2ccccc2)nc(OC2CCCC2)[nH]c1=O,-,>1000 µM
COc1ccc(N(C)C(=O)[C@H](Cc2cc(F)cc(F)c2)NC(=O)CN2CCN(S(=O)(=O)c3cccc(C)c3)CC2=O)cc1,MTT,>204 µM
O=C(/C=C/c1ccc(O)c(O)c1)O[C@H]1[C@H](O)[C@@H](O)[C@H](Oc2cc(O)c3c(=O)cc(-c4ccc(O)cc4)oc3c2)O[C@@H]1C(=O)O,-,>150 µg/mL
COc1ccc(N(C)C(=O)[C@H](Cc2cc(F)cc(F)c2)NC(=O)CN2CCN(S(=O)(=O)c3cccc(Br)c3)CC2=O)cc1,MTT,13.24 µM
O=C1Nc2ccc(Cl)cc2/C1=N/n1c(-c2ccncc2)n[nH]c1=S,-,10.8 µM

4 of the rows above, restated:

structure	read by	value
Cc1cn([C@H]2C[C@H](N=[N+]=[N-])[C@@H](COP(=O)(Nc3cc(C(=O)Nc4cc(C(=O)Nc5cc(C(=O)Nc6cc(C(=O)NCCC(=N)N)n(C)c6)n(C)c5)n(C)c4)n(C)c3)OC3CCCCC3)O2)c(=O)[nH]c1=O	MTT	221 µM
COc1ccc(N(C)C(=O)[C@H](Cc2cc(F)cc(F)c2)NC(=O)CN2CCN(S(=O)(=O)c3cccc(NC(C)=O)c3)CC2=O)cc1	MTT	91.58 µM
COc1ccc(N(C)C(=O)[C@H](Cc2cc(F)cc(F)c2)NC(=O)CN2CCN(S(=O)(=O)c3cccc(C)c3)CC2=O)cc1	MTT	>204 µM
C[C@H](NP(=O)(OC[C@@H]1C=C[C@H](n2ccc3c(N)ncnc32)C1)Oc1ccccc1)C(=O)OCc1ccccc1	trypan blue	78 µM

CCn is the concentration with n% toxicity to the cells. Rows are shuffled and stem from different studies.